PubChem BioAssay AID504761 | Drosophila RNAi Screening Center | 2011
In all, the deposit lists about 22,000 reagents; this is an unselected part of those with a known target gene and a result. In the full data, 116 (0.52%) got an active call. 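Calls depend on retest data that are not deposited; infection was ranked per plate without normalising between plates; the unit of the infection score is not given.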 The raw values are shown without normalisation. The numbers tell different reagents against one gene apart. Not given: the amount of reagent, the time to read-out.

Purpose: 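Genome-wide fly cell screen for genes dengue virus requires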 (primary screen)
Cells: D.Mel-2 cells from Drosophila
Reagents: long dsRNA against Drosophila genes
Treatment: infection with dengue virus type 2; dose and infection time not stated
Measured: 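Cells stained for dengue envelope protein and imaged; percent of infected cells per well on duplicate plates, ranked by infection, with stained nuclei counted for cell number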
Direction: infection score: higher = more virus-infected cells; cell count: higher = more cells in the well
Active means: 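Very low infection ranking in both replicate wells (chance probability at most 0.065), then a retest showing infection dropped 1.5-fold or more at p below 0.05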
Meaning of the calls: active = confirmed: knock-down lowers infection; inactive = not picked or not confirmed

gene	dsRNA no.	infection score, replicate 1	infection score, replicate 2	cell count, replicate 1	cell count, replicate 2	call
SamDC (S-adenosylmethionine decarboxylase)	1	4.07	9.45	6366	6797	inactive
org-1 (optomotor-blind-related-gene-1)	1	0.83	6.33	6288	6654	inactive
org-1 (optomotor-blind-related-gene-1)	2	4.46	2.11	5965	6154	inactive
CG17738	1	5.39	19.1	6770	6272	inactive
CG17738	2	13.7	8.79	2735	3002	inactive
noc (no ocelli)	1	6.47	10.8	5814	6115	inactive
ItgaPS5 (Integrin alphaPS5 subunit)	1	5.79	5.26	6600	6755	inactive
ItgaPS5 (Integrin alphaPS5 subunit)	2	18.6	4.82	3657	1224	inactive
CG12093	1	11.2	21.2	6320	6292	inactive
CG32845	1	4.88	4.32	6111	6324	inactive
CG32845	2	11.3	7.52	5375	5934	inactive
CG7059	1	5.32	5.94	1806	5659	inactive
CG7059	2	11.4	8.79	4615	6203	inactive
CG11837	1	11.6	3.01	6004	6700	inactive
Prosbeta4 (Proteasome beta4 subunit)	1		8.22	557	6008	inactive
CG4496	1	22.2	30.7	2690	6250	inactive
Idgf3 (Imaginal disc growth factor 3)	1	28.1	10.7	5727	6293	inactive
CG32797	1	13.1	2.82	6331	5884	inactive
nAChRbeta2 (nicotinic Acetylcholine Receptor beta2)	1	12.1	3.63	6137	6635	inactive
Recs1	1	4.28	7.37	6208	6295	inactive
CG8483	1	11.6	8.89	5941	5896	inactive
Tsp42Ek (Tetraspanin 42Ek)	1	10.8	16.8	5753	6220	inactive
Cpr50Ca (Cuticular protein 50Ca)	1	2.57	3	6068	5838	inactive
Cpr50Ca (Cuticular protein 50Ca)	2	24.7	13.8	5397	6080	inactive
Cpr50Ca (Cuticular protein 50Ca)	3	16.5	19.9	4451	6233	inactive
